# Test results as given in patent publication US6861448B2, “NAD synthetase inhibitors and uses thereof” (priority 1998, dated 2005).
# Columns and labels:
# [1] = test system: A. niger; assay: MIC test, fungal growth inhibition; settings: in vitro; tested form: iodide
# [2] = test system: C. albicans; assay: MIC test, fungal growth inhibition; settings: in vitro; tested form: iodide
# [3] = test system: P aeruginosa; assay: MIC test (NCCLS broth dilution), growth inhibition; type: cell-based; settings: in vitro; tested form: iodide
# [4] = test system: S. aureus (MCR); assay: MIC test (NCCLS broth dilution), growth inhibition; type: cell-based; settings: multiple values = two or more tests; tested form: iodide
# [5] = test system: S. aureus; assay: MIC test (NCCLS broth dilution), growth inhibition; type: cell-based; settings: multiple values = two or more tests; tested form: iodide
# [6] = test system: E. coli; assay: MIC test (NCCLS broth dilution), growth inhibition; type: cell-based; settings: in vitro; tested form: iodide
smiles,measurement,setting,value
C[N+](C)(C)[C@@H](Cc1ccccc1)C(=O)NCCCCCCCCOc1ccc(OCc2cccc(Cl)c2)cc1,"Potency to inhibit growth, A. niger (MIC)",[1],>50 µg/mL
same,"Potency to inhibit growth, C. albicans (MIC)",[2],<3.13 µg/mL
same,"Potency to inhibit growth, P aeruginosa (MIC)",[3],>50 µg/mL
same,"Minimal Inhibitory Concentration (MIC), S. aureus (MCR)",[4],<0.78 µg/mL
same,"Minimal Inhibitory Concentration (MIC), S. aureus",[5],<1.56 µg/mL
same,"Potency to inhibit growth, E. coli (MIC)",[6],>50 µg/mL
